According to US7531573B2 (priority 1994, dated 2009):

Assays:
[1] = molecular target: T1, Gardos channel (Homo sapiens, UniProt O15554); test: Displacement of 125I-ChTX binding to red cells; conditions: 50 nM
[2] = molecular target: T1, Gardos channel; conditions: Brugnara, 1993; cited from earlier work

## Charybdotoxin
[1]
  125I-ChTX Binding: 0.608
  Displacement (%): 100.0%
[2]
  IC50 for displacement of 125I-ChTX relative to inhibition of K+ transport: two to three fold increase
